The text below walks through data of PubChem BioAssay AID624415 (National Center for Advancing Translational Sciences (NCATS), 2012).

Amino acid sequences for entries named in this document (tags omitted).
UniProt Q9GZU1, whole entry: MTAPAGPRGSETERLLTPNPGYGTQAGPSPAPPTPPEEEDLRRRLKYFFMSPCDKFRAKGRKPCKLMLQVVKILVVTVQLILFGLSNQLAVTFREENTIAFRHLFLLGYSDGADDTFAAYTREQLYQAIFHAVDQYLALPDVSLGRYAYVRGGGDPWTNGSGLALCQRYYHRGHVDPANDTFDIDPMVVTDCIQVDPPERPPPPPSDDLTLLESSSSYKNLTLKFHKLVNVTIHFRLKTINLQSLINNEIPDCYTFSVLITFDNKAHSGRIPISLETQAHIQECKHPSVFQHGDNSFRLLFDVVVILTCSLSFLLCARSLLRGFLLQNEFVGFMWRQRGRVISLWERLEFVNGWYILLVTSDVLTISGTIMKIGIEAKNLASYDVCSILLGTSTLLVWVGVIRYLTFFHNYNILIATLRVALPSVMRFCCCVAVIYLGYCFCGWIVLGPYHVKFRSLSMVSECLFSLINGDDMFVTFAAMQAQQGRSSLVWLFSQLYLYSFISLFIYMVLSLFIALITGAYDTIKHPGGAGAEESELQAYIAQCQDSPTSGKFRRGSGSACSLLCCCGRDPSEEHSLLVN

Structures are written as SMILES. This is a selection; strong and weak results do not stand in their true shares. The source made the active and inactive calls. No stated cut-off is given here; in the data, active means activity change below about -50%; inconclusive means between about -30% and that limit; inactive means weaker than that.
On the % scale 0 is the no-effect control and ±100 the full control effect.

In the assay the target is Mucolipin-1 (Homo sapiens) (UniProt Q9GZU1). Put plainly: qHTS for Inhibitors of the Human Mucolipin Transient Receptor Potential 1 (TRPML1).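 Further: stimulus is agonist 54-4 at its EC80 concentration.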 The settings on record: TRPML1-inducible cells, Ca2+ dye fluorescence, FDSS; hits give low values; inhibition of EC80 agonist-evoked calcium signal. The text has this: Mutations of human Mucolipin transient receptor potential 1 (TRPML1) cause type IV mucolipidosis (ML4), a devastating neurodegenerative disease in young children. […] Currently, there is no treatment for ML4. […] Under physiological conditions, TRPMLs regulate membrane trafficking by transducing information about PI(3,5)P2 levels into changes in juxtaorganellar Ca2+, thereby triggering membrane fusion/fission events in the late endocytic pathways (endolysosomal trafficking). In addition, TRPML1 mediates release of Fe2+ from late endosomes and lysosomes, which is essential for cellular iron metabolism. Thus, impaired ion (Ca2+ and Fe2+) homeostasis underlies lysosomal dysfunction and ML4 phenotypes. In ML4 cells, the problem is twofold. First, defective Ca2+-dependent membrane trafficking due to TRPML1-deficiency causes accumulation of lipids and other bio-materials in the lysosome. The second strike comes from the lysosomal iron overload (due to impairment of TRPML1's Fe2+ conductivity), which converts the accumulated materials into the nondegradable (resistant to lysosomal degradation) lipofuscin (also called aging pigment) in the lysosome. Lipofuscin accumulation dramatically compromises the functions of lysosomes.
Niemann-Pick type C (NPC) disease is another lysosome storage disease (LSD) with severe neurodegeneration during the childhood. Currently, there is no cure for NPC. […] Thus, TRPML1 is likely to be an essential regulator of lysosome ion homeostasis. We specifically hypothesize that stimulating TRPML1's Fe2+/Ca2+ channel activity in the lysosome using synthetic agonists can alleviate neurodegeneration associated with ML4 or NPC.
To this end, a high throughput screen was developed in a miniaturized format to screen against the Molecular Libraries Small Molecule Repository (MLSMR) to find small molecules that act either as inhibitors or agonist against the TRPML1 channel.
NIH Chemical Genomics Center [NCGC]
NIH Molecular Libraries Probe Centers Network [MLPCN]
Assay Submitter (PI): Haoxing Xu, University of Michigan Ann Arbor
TRPML1-DL cells are dissociated from flasks, counted and, brought up to a density of 500,000 cells per mL of media containing a 1X Tet inducer. Using a Multidrop Combi, 3 uL of this cell solution is dispensed to each well of a 1536 TC treated, black, clear bottom hi base plate for a final cell density of 1,500 cells per well. The assay plates are incubated overnight (approximately 16 hours) at 37 degrees C and 5% CO2. Using a Multidrop Combi, 2 uL of ABD Ca8 no wash dye plus quencher is added to each well. The assay plates incubate at room temperature in the dark for 45-90 minutes. The assay plate is read on the FDSS using the following protocol: 10 second baseline read, 23 nL of compounds and controls are added using 1536 pintool, agonist read for 110 seconds, 1 uL EC80 addition (4 uM final 54-4 diluted in media), antagonist read for 110 seconds.
(In general: Quantitative high-throughput screening tests each substance at several concentrations.)
For the compound `O=C(NCC1(N2CCOCC2)CCCCC1)c1ccc([N+](=O)[O-])cc1`, the activity change, negative = inhibition is inactive: -3.01%. With `CC(C)(C)OC(=O)N1CCC(N(C(=O)c2ccccc2)c2ccc(Cl)cc2)CC1` the figure was inactive: -6.12%; with `N#Cc1ccc(C(=O)NCC2(N3CCCCC3)CCCCC2)cc1`, inactive: 4.81%. With `O=C(NCC1(N2CCOCC2)CCCCC1)c1ccccc1[N+](=O)[O-]` the figure was inactive: -21.8%; with `CCOC(=O)C(CC)C1=NC(C)(C)Cc2ccccc21.O=[N+]([O-])c1cc([N+](=O)[O-])c(O)c([N+](=O)[O-])c1` (stereo not drawn), inactive: 8.78%; with `c1ccc(CN2CCC(Nc3ccccc3)CC2)cc1`, inactive: 61.5%. As for `O=C(NCC1(N2CCOCC2)CCCCC1)c1ccccc1`, the figure is inactive: -19.3%; as for `Cc1cc(N(CCCl)CCCl)ccc1C=O`, inactive: 19.7%; as for `CCCN1CCC(Nc2cc(OC)cc(OC)c2)CC1`, inactive: 4.8%. Take `CN(C)C1(CNC(=O)c2cccc(C#N)c2)CCCCC1`: the activity change, negative = inhibition was inactive: -0.0534%.

Take `O=C(NCC1(N2CCOCC2)CCCCC1)c1cc(Br)ccc1Cl`: the activity change, negative = inhibition was inactive: -1.81%. In the case of `COc1cc(C(=O)NCC2(N3CCOCC3)CCCCC2)cc(OC)c1C`, the activity change, negative = inhibition is inactive: 0.557%.

On to `COc1ccc(C(=O)NCC2(N3CCOCC3)CCCCC2)cc1OC`, for which the activity change, negative = inhibition was inactive: -21.1%. With `O=c1[nH]c2ccccc2n1C1CCN(C(c2ccnc3ccccc23)c2nnnn2C2CCCC2)CC1` (stereo not drawn), the activity change, negative = inhibition is inactive: -1.24%. As for `O=c1[nH]c2ccccc2n1C1CCN(C(c2cccs2)c2nnnn2C2CCCCC2)CC1` (stereo not drawn), the figure is inactive: 0.371%; as for `N/C(=N\O)c1c(N)no[n+]1[O-]`, inactive: 8.61%.

For the compound `COc1cccc(C(c2nnnn2C(C)(C)C)N2CCC(n3c(=O)[nH]c4ccccc43)CC2)c1OC` (stereo not drawn), the activity change, negative = inhibition is inactive: 57.9%. For `CCOC(=O)N1CCC(Nc2ccc(C)cc2)CC1`, the activity change, negative = inhibition is inactive: 0.119%.

For the compound `O=C(OC1CN2CCC1CC2)C1c2ccccc2C=Cc2ccccc21` (stereo not drawn), the activity change, negative = inhibition was inactive: 6.14%. For the compound `CCc1cc(C(=O)NCC2(N3CCCCC3)CCCCC2)sc1C`, the activity change, negative = inhibition was inactive: -7.04%.

For the compound `O=C(O)c1cccc(Nc2c([N+](=O)[O-])cc([N+](=O)[O-])cc2[N+](=O)[O-])c1`, the activity change, negative = inhibition is inactive: -3.66%.

On to `O=c1[nH]c2ccccc2n1C1CCN(C(c2cccs2)c2nnnn2C2CCCC2)CC1` (stereo not drawn), for which the activity change, negative = inhibition is inactive: -11%. With `CCOc1ncccc1C(=O)NCC1(N2CCOCC2)CCCCC1` the figure was inactive: -9.57%.

As to `CN1CCC(Nc2ccc(F)c(Cl)c2)CC1`, the activity change, negative = inhibition is inactive: 11.9%. Turning to `CCCOc1ccc(C(=O)NCC2(N(C)C)CCCCC2)cc1`, the activity change, negative = inhibition was inactive: -22.1%. Consider `CC(C)(C)OC(=O)N1CCC(Nc2ccccc2)CC1`, for which the activity change, negative = inhibition was inactive: 6.66%. Take `O=C(O)C1(Nc2ccccc2)CCN(Cc2ccccc2)CC1`: the activity change, negative = inhibition is inactive: -2.86%.

In the case of `CCC(CO)(C(=O)OC1CN2CCC1CC2)c1ccccc1` (stereo not drawn), the activity change, negative = inhibition was inactive: 27.6%. As for `COc1cc(OC)cc(C(=O)NCC2(N3CCOCC3)CCCCC2)c1`, the activity change, negative = inhibition was inactive: -14.5%.

As for `COc1cc(C(=O)NCC2(N3CCOCC3)CCCCC2)cc(OC)c1OC`, the activity change, negative = inhibition is inactive: 2.12%. With `CN1CCC(Nc2ccc(Cl)cc2)CC1` the figure was inactive: 2.49%. As for `COc1cc(OC)cc(C(=O)NCC2(N3CCCCC3)CCCCC2)c1`, the activity change, negative = inhibition was inactive: -19.1%.

In the case of `CC(=O)N(c1ccccc1)C1CCNCC1`, the activity change, negative = inhibition is inactive: 11.3%. As for `COc1cccc(C(c2nnnn2C2CCCCC2)N2CCC(n3c(=O)[nH]c4ccccc43)CC2)c1OC` (stereo not drawn), the figure is inactive: -2.28%; as for `CN(C)C1(CNC(=O)c2ccc(C(C)(C)C)cc2)CCCCC1`, inactive: -22.7%; as for `CCC(c1nnnn1C1CCCCC1)N1CCC(n2c(=O)[nH]c3ccccc32)CC1` (stereo not drawn), inactive: 9.11%. With `Cc1ccc(NC2(C#N)CCN(Cc3ccccc3)CC2)cc1` the figure was inactive: -2.42%.

In the case of `Cc1ccc(C(=O)NCC2(N3CCCCC3)CCCCC2)o1`, the activity change, negative = inhibition is inactive: -2.58%. With `Cc1ccc(Nc2c([N+](=O)[O-])cc([N+](=O)[O-])cc2[N+](=O)[O-])cc1` the figure was inactive: -0.321%; with `Fc1ccccc1NC1CCN(Cc2ccccc2)CC1`, inactive: 33.4%. As for `Cc1ccccc1NC1(C#N)CCN(Cc2ccccc2)CC1`, the figure is inactive: -28.8%; as for `CCN1CCC(Nc2cccc(F)c2)CC1`, inactive: 4.68%; as for `CC(C)(C)c1ccc(C(=O)NCC2(N3CCOCC3)CCCCC2)cc1`, inactive: 20.8%. With `O=C(NCC1(N2CCCCC2)CCCCC1)c1ccco1`, the activity change, negative = inhibition is inactive: 4.53%. With `Cn1c(=O)[nH]cc(N(CCCl)CCCl)c1=O` the figure was inactive: 1.22%. For the compound `CN(C)c1ccc(C(=O)NCC2(N3CCCCC3)CCCCC2)cc1`, the activity change, negative = inhibition was inactive: 2.98%. Take `Cc1ccccc1C(=O)NCC1(N(C)C)CCCCC1`: the activity change, negative = inhibition was inactive: 6.93%.

As for `CCOc1ccc(C)cc1CN(CCCl)CCCl`, the activity change, negative = inhibition is inactive: 2.63%. With `O=C(NCC1(N2CCOCC2)CCCCC1)c1ccc(Cl)cc1` the figure was inactive: -8.29%; with `O=C(NCC1(N2CCCCC2)CCCCC1)c1ccc(F)cc1`, inactive: -13.2%. With `O=P1(N(CCCl)CCCl)SCCCS1` the figure was inactive: -3.38%; with `CCCCOc1ccc(C(=O)NCC2(N3CCOCC3)CCCCC2)cc1`, inactive: -19.1%. With `COc1ccc(NC2CCN(CCc3ccccc3)CC2)c(OC)c1` the figure was inactive: 26.5%. With `CCOC(=O)N1CCC(Nc2ccc(F)cc2)CC1`, the activity change, negative = inhibition was inactive: 43.1%. As for `COc1ccccc1C(=O)NCC1(N2CCOCC2)CCCCC1`, the figure is inactive: 2.76%; as for `O=c1[nH]c2ccccc2n1C1CCN(C(c2ccccc2)c2nnnn2C2CCCCC2)CC1` (stereo not drawn), inactive: -2.12%. As to `COc1cc(C(=O)NCC2(N(C)C)CCCCC2)ccc1OC(F)F`, the activity change, negative = inhibition is inactive: -18.8%. As for `CCOC(=O)N1CCC(Nc2cccc(C)c2)CC1`, the figure is inactive: -11.7%; as for `O=C(NCC1(N2CCCCC2)CCCCC1)c1ccc(=O)[nH]c1`, inactive: 4.12%.

Take `O=C(NCC1(N2CCCCC2)CCCCC1)c1cccs1`: the activity change, negative = inhibition was inactive: -15.9%.

With `CCCCn1nnnc1C(CC)N1CCC(n2c(=O)[nH]c3ccccc32)CC1` (stereo not drawn), the activity change, negative = inhibition was inactive: 20.1%. For the compound `COc1ccc(C(=O)NCC2(N3CCCCC3)CCCCC2)cc1`, the activity change, negative = inhibition was inactive: 2.15%.

As for `CCC(c1nnnn1C1CCCC1)N1CCC(n2c(=O)[nH]c3ccccc32)CC1` (stereo not drawn), the activity change, negative = inhibition was inactive: -18.3%.
